Reference: PubChem BioAssay AID1259414 (Drosophila RNAi Screening Center, 2018)
Aim: 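Host factors increasing or decreasing Wolbachia levels in cultured fly cells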 (primary screen). System: Drosophila JW18 cells infected with Wolbachia. Reagent: long dsRNA against Drosophila genes, 0.25 µg dsRNA per well of a 384-well plate. Timing: 5 days. Treatment: cells persistently infected with Wolbachia before knock-down; no added drug. Measured: 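Automated imaging of bacterial rRNA staining divided by host cell count, reported as plate-normalised robust z-score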. Scale: Wolbachia per cell robust z: higher = more Wolbachia per host cell than the plate typical. Call rule: 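Active if absolute robust z reaches 1.5 in two or more of three replicates, leaving out multi- or no-target dsRNAs, genes unexpressed in JW18 and A1 wells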.
In all, the deposit lists about 24,000 reagents; below is an unselected part of those with a known target gene and a result. In the full data, about 1,210 (5%) got an active call. 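Inactive calls also include excluded dsRNAs with several or no targets, genes unexpressed in JW18, and well A1, regardless of score.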 Reagents against one gene are numbered here. Names joined by + are all predicted targets of the reagent.

target | reagent | Wolbachia per cell robust z, rep 1 | Wolbachia per cell robust z, rep 2 | Wolbachia per cell robust z, rep 3 | Call
Culd | 1 | 0.651 | -0.584 | 0.978 | inactive
unc80 | 1 | 0.757 | -0.125 | 0.45 | inactive
CG14931 | 1 | 1.09 | -0.359 | 1.13 | inactive
825-Oak + CG32213 + CG32214 | 1 | 0.175 | -0.406 | 0.256 | inactive
Cp16 | 1 | -0.657 | 1.2 | 1.4 | inactive
Cp16 | 2 | -0.705 | -1.71 | 0.565 | inactive
Stt3B | 1 | 0.683 | -1.12 | -4.8 | inactive
CG7966 | 1 | -1.03 | -0.297 | -0.209 | inactive
CG12477 | 1 | 0.888 | -0.236 | 0.736 | inactive
CG12477 | 2 | 0.99 | 1.04 | 0.545 | inactive
CG43737 | 1 | -1.73 | 1.11 | -1.61 | inactive
CG43737 | 2 | -3.02 | -0.309 | -0.516 | inactive
CG43737 | 3 | 0.602 | -0.67 | -1.47 | inactive
CG43737 | 4 | 0.148 | -0.375 | 0.861 | inactive
phr | 1 | 0.718 | 0.586 | -0.254 | inactive

Next part; the last 2 above are carried over.
target | reagent | Wolbachia per cell robust z, rep 1 | Wolbachia per cell robust z, rep 2 | Wolbachia per cell robust z, rep 3 | Call
CG43737 | 4 | 0.148 | -0.375 | 0.861 | inactive
phr | 1 | 0.718 | 0.586 | -0.254 | inactive
CG17107 | 1 | -0.249 | 0.258 | 0.0565 | inactive
CG17107 | 2 | -0.443 | -0.868 | -1.38 | inactive
CG17107 | 3 | 0.162 | -0.452 | -0.709 | inactive
CG12204 | 1 | 0.0457 | -0.000717 | -0.226 | inactive
CG12204 | 2 | -1.11 | -1.36 | -0.772 | inactive
Grd | 1 | -0.214 | -0.849 | 0.547 | inactive
Grd | 2 | 0.315 | -0.0902 | 0.573 | inactive
CG12391 | 1 | 0.863 | 0.224 | -0.112 | inactive
Dph5 | 1 | -0.766 | 1.81 | -0.352 | inactive
Dph5 | 2 | -1.5 | 0.423 | -0.528 | inactive
osy | 1 | 0.369 | 0.324 | -0.29 | inactive
osy | 2 | 0.0146 | 0.186 | 0.56 | inactive
osy | 3 | -0.775 | -1.78 | 0.387 | inactive
